PubChem BioAssay AID624099 | ICCB-Longwood, 2012

Test: 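Knock-downs relieving repression by E2 of an HPV18 LCR luciferase reporter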 (primary screen)
Cells: human C33A cervical carcinoma cells (HPV-negative) stably expressing BPV1 E2 and an HPV18 LCR luciferase reporter
Knock-down reagent: siRNA pool against human genes, 40 nM
Duration: 72 h
Read-out: 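Per-well luciferase luminescence, z-scored on each plate against the plate mean and SD with control wells left out, then averaged across three replicate plates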
Reading the numbers: mean z-score and z-score: higher = stronger reporter signal, weaker E2 silencing
Active means: 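Hit if mean z-score reaches 2 and two or more of three replicate z-scores also reach 2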
This is an unselected part of about 21,000 reagents tested. 497 of all reagents (2.4%) were called active. 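Higher z means weaker E2 silencing; only reporter increases were scored, and knock-downs that hurt cell survival may mask genuine repressor factors.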

target	mean z-score	z-score, replicate A	z-score, replicate B	z-score, replicate C	activity call
CLDN14 (GeneID 23562)	-0.57	-0.82	-0.5	-0.4	inactive
USP22 (GeneID 23326)	-0.53	-0.52	-0.53	-0.53	inactive
PRAM1 (GeneID 84106)	0.67	0.78	0.37	0.85	inactive
LINC02579 (GeneID 339807)	-0.16	-0.24	-0.4	0.17	inactive
GNL1 (GeneID 2794)	-0.45	-0.25	-0.66	-0.45	inactive
HBB (GeneID 3043)	0.19	0.12	0.18	0.28	inactive
EXTL1 (GeneID 2134)	-0.44	-0.54	-0.55	-0.21	inactive
DPY19L3-DT (GeneID 400684)	0.03	-0.22	0.26	0.05	inactive
KIF4A (GeneID 24137)	-1.05	-1.19	-1.09	-0.88	inactive
FAM227B (GeneID 196951)	0.5	0.65	0.23	0.63	inactive
NFYA (GeneID 4800)	0.85	0.71	0.78	1.06	inactive
MTIF2 (GeneID 4528)	0.92	1.12	0.58	1.06	inactive
PCBD2 (GeneID 84105)	0.35	0.38	0.39	0.29	inactive
TIMP4 (GeneID 7079)	0.09	-0.07	-0.01	0.34	inactive
DYNC1I2 (GeneID 1781)	-0.5	-0.52	-0.47	-0.51	inactive
AKR1C2 (GeneID 1646)	-0.69	-0.6	-0.77	-0.7	inactive
CCDC137 (GeneID 339230)	-0.32	-0.25	-0.2	-0.5	inactive
PSMD7 (GeneID 5713)	-1.57	-2.12	-1.38	-1.21	inactive
RAPH1 (GeneID 65059)	0.05	0.25	0.05	-0.16	inactive
NSF (GeneID 4905)	0.29	0.23	0.17	0.48	inactive
PRIMPOL (GeneID 201973)	-0.09	-0.32	-0.03	0.08	inactive
FOXS1 (GeneID 2307)	2.04	2.43	2	1.69	inactive
MGAT2 (GeneID 4247)	-1.14	-1.14	-1.43	-0.85	inactive
SLC25A6 (GeneID 293)	-0.98	-1.04	-0.9	-1	inactive
LDLRAP1 (GeneID 26119)	0.62	0.68	0.57	0.61	inactive
DCAF6 (GeneID 55827)	0.19	0.13	0.11	0.34	inactive
MAP2K2 (GeneID 5605)	-0.27	-0.15	-0.23	-0.42	inactive
MIP (GeneID 4284)	0.15	0.73	-0.36	0.08	inactive
IBA57 (GeneID 200205)	0.12	0.01	-0.06	0.41	inactive
INPP5A (GeneID 3632)	0.52	0.76	0.79	0	inactive
RUVBL1 (GeneID 8607)	0.4	0.3	0.36	0.53	inactive

Already shown: 7 of the entries above.
target	mean z-score	z-score, replicate A	z-score, replicate B	z-score, replicate C	activity call
MGAT2 (GeneID 4247)	-1.14	-1.14	-1.43	-0.85	inactive
SLC25A6 (GeneID 293)	-0.98	-1.04	-0.9	-1	inactive
LDLRAP1 (GeneID 26119)	0.62	0.68	0.57	0.61	inactive
DCAF6 (GeneID 55827)	0.19	0.13	0.11	0.34	inactive
MAP2K2 (GeneID 5605)	-0.27	-0.15	-0.23	-0.42	inactive
MIP (GeneID 4284)	0.15	0.73	-0.36	0.08	inactive
IBA57 (GeneID 200205)	0.12	0.01	-0.06	0.41	inactive

The listing continues:
target	mean z-score	z-score, replicate A	z-score, replicate B	z-score, replicate C	activity call
ABTB2 (GeneID 25841)	0.18	0.29	0.13	0.11	inactive
ATP5PF (GeneID 522)	0.81	0.71	0.65	1.07	inactive
SPTB (GeneID 6710)	-0.11	-0.36	-0.19	0.21	inactive
CACNA1D (GeneID 776)	0	-0.37	0.08	0.29	inactive
BAG2 (GeneID 9532)	0.24	-0.06	0.21	0.58	inactive
TTC29 (GeneID 83894)	0.29	0.5	-0.01	0.38	inactive
ADCYAP1 (GeneID 116)	-0.7	-0.69	-0.86	-0.56	inactive
PLEC (GeneID 5339)	0.71	0.48	0.83	0.83	inactive
LLGL1 (GeneID 3996)	-0.61	-0.36	-0.69	-0.8	inactive
KMT2C (GeneID 58508)	1.32	1.3	1.53	1.13	inactive
ACOT9 (GeneID 23597)	0.12	0.09	-0.05	0.31	inactive
DNAJB14 (GeneID 79982)	0.86	0.83	1.28	0.48	inactive
PAEP (GeneID 5047)	-0.69	-0.58	-0.71	-0.77	inactive
TRAK1 (GeneID 22906)	-0.82	-1	-0.57	-0.9	inactive
BIRC8 (GeneID 112401)	-0.75	-0.47	-0.84	-0.95	inactive
CFAP263 (GeneID 29070)	-2.05	-2.1	-2.33	-1.71	inactive
WWC2-AS2 (GeneID 152641)	0.32	0.2	0.8	-0.03	inactive
PSAT1 (GeneID 29968)	-1.23	-1.31	-1.68	-0.71	inactive
AP3S2 (GeneID 10239)	0.41	0.38	0.5	0.35	inactive
LYPLAL1 (GeneID 127018)	0.34	0.25	0.5	0.27	inactive
SLFNL1 (GeneID 200172)	1.04	1.26	0.85	1	inactive
DEPDC1B (GeneID 55789)	0.21	0.22	0.38	0.03	inactive
FGF22 (GeneID 27006)	0.13	0.28	-0.16	0.28	inactive
SEMA4C (GeneID 54910)	1.4	1.42	1.41	1.38	inactive
LRRC9 (GeneID 341883)	-0.86	-1.14	-0.94	-0.5	inactive
CSRP2 (GeneID 1466)	-0.63	-0.65	-0.72	-0.5	inactive
SFRP5 (GeneID 6425)	-1.57	-1.4	-1.7	-1.61	inactive
PDPN (GeneID 10630)	-0.09	0.04	-0.08	-0.24	inactive
KRIT1 (GeneID 889)	0.08	-0.2	0.19	0.26	inactive
LOC100289495 (GeneID 100289495)	0.57	0.78	0.4	0.52	inactive
LOC389663 (retired record) (GeneID 389663)	-0.55	-0.77	-0.64	-0.24	inactive
GATB (GeneID 5188)	0.02	-0.1	0.36	-0.19	inactive
MTA1 (GeneID 9112)	-0.44	-0.78	-0.19	-0.35	inactive
BACH1 (GeneID 571)	-0.01	-0.37	0.04	0.31	inactive
SRSF7 (GeneID 6432)	0.4	-0.08	0.4	0.87	inactive
LOC387873 (retired record) (GeneID 387873)	1.53	1.72	1.47	1.4	inactive
KLHL36 (GeneID 79786)	-0.46	-0.67	-0.39	-0.32	inactive
SUSD1 (GeneID 64420)	-0.7	-0.6	-0.8	-0.7	inactive
TMEM196 (GeneID 256130)	-0.02	0.08	-0.28	0.14	inactive
IGFALS (GeneID 3483)	-0.38	-0.21	-0.5	-0.44	inactive
NOP56P2 (GeneID 402360)	0.17	-0.09	0.48	0.13	inactive
LINC03163 (GeneID 339593)	0.32	0.03	0.48	0.47	inactive
